Anti-infective test results gathered from many reports (values: NIAID ChemDB through PubChem).

All rows: tests in culture; agent: Aspergillus clavatus; endpoint: MIC

Blank or dashed fields: not listed here.

smiles	strain or isolate	read by	result
O=C(CSc1nnc(-c2ccc(N=Cc3cccs3)cc2)o1)Nc1ccc(Cl)c(Cl)c1	MTCC 1323	broth dilution	500 µg/mL
N#Cc1c(-c2ccc(Cl)cc2)cc(-c2cc3cc(F)ccc3oc2=O)nc1NS(=O)(=O)c1ccccc1	MTCC 1323	turbidity	1000 µg/mL
O=C(CSc1nnc(-c2ccc(N=Cc3cccs3)cc2)o1)Nc1ccc(Br)cc1	MTCC 1323	broth dilution	1000 µg/mL
Cc1cc(Cl)[nH]c2ccc3c(=O)c(C(=O)NN4C(=O)C(Cl)C4c4cc([N+](=O)[O-])ccc4O)cnc3c12		broth dilution	500 µg/mL
Cc1ccc(N2NOC(=O)C2S(=O)(=O)Nc2ccc(-n3c(-c4cccc(Br)c4)nc4ccccc4c3=O)cc2)cc1	MTCC323	broth dilution	500 µg/mL
N#Cc1ccc(Nc2nc(Oc3cccc4cccnc34)nc(N3CCCCC3)n2)cc1C(F)(F)F	MTCC 1323	agar	50 µg/mL
COc1cccc(-c2cc(-c3cc4cc(F)ccc4oc3=O)nc(NS(=O)(=O)c3ccccc3)c2C#N)c1	MTCC 1323	turbidity	200 µg/mL
Cc1nn(-c2ccccc2)c2c1C(c1ccc(F)cc1)C(C#N)=C(N)O2	MTCC 1323		500 µg/mL
O=C(CSc1nnc(-c2ccc(N=Cc3cccs3)cc2)o1)Nc1ccccc1[N+](=O)[O-]	MTCC 1323	broth dilution	500 µg/mL
COc1ccccc1C=NNC(=O)c1cnc2c(ccc3[nH]c(Cl)cc(C)c32)c1=O		broth dilution	1000 µg/mL
O=C(CSc1nnc(-c2ccc(N=Cc3cccs3)cc2)o1)Nc1ccc(F)cc1	MTCC 1323	broth dilution	1000 µg/mL
O=C(NN1C(=O)/C(=C/c2cc3ccccc3nc2Cl)N=C1c1ccccc1)c1cccc(O)c1	MTCC 1323	broth dilution	500 µg/mL
S=C(Nc1ccc(Cl)cc1)Nc1nc(N2CCN(c3ccccc3)CC2)c2ccccc2n1	MTCC 1323	agar / visual reading	400 µg/mL
O=c1c2ccccc2nc(Cc2ccccc2Nc2c(Cl)cccc2Cl)n1NS(=O)(=O)c1ccc(N=Cc2ccccc2[N+](=O)[O-])cc1		broth dilution	>1000 µg/mL
Cc1cc(Cl)[nH]c2ccc3c(=O)c(C(=O)NN=Cc4ccc(Cl)cc4)cnc3c12		broth dilution	250 µg/mL
CCN1CCN(c2nc(NC(=S)N3CCN(Cc4ccc(OC)c(OC)c4OC)CC3)nc3ccccc23)CC1	MTCC 1323	agar / visual reading	100 µg/mL
Cc1ccc(C2C(Cl)C(=O)N2NC(=O)c2cnc3c(ccc4[nH]c(Cl)cc(C)c43)c2=O)cc1		broth dilution	>1000 µg/mL
CC(C)N1CCN(c2nc(Nc3ccc(C#N)c(C(F)(F)F)c3)nc(Oc3cccc4cccnc34)n2)CC1	MTCC 1323	agar	50 µg/mL
CCCCOc1ccc(-c2csc(NS(=O)(=O)C3C(=O)ONN3c3ccc(C)cc3)n2)cc1	MTCC323	broth dilution	250 µg/mL
Cc1nn(-c2ccccc2)c2c1C(c1ccc(O)cc1)c1c(nc(=S)[nH]c1N)O2	MTCC 1323		250 µg/mL
CCN1CCN(c2nc(NC(=S)N3CCN(C)CC3)nc3ccccc23)CC1	MTCC 1323	agar / visual reading	3.12 µg/mL
N#Cc1ccc(Nc2nc(Oc3cccc4cccnc34)nc(N3CCN(c4ccccc4)CC3)n2)cc1C(F)(F)F	MTCC 1323	agar	100 µg/mL
Cc1ccc(N2NOC(=O)C2S(=O)(=O)Nc2nc3ccc([N+](=O)[O-])cc3s2)cc1	MTCC323	broth dilution	250 µg/mL
COc1ccc(NC(=O)CSc2nnc(-c3ccc(N=Cc4cccs4)cc3)o2)cc1	MTCC 1323	broth dilution	1000 µg/mL
COc1ccccc1Nc1nc2c(sc(=S)n2-c2ccccc2)c(=O)n1-c1ccccc1OC	MTCC 1323	broth dilution	0.2 µg/mL
C[C@H]1[C@H](O)[C@@H](C)/C=C/C=C/C=C/C=C/C=C/C=C/C=C/[C@H](O[C@@H]2O[C@H](C)[C@@H](O)[C@H](N)[C@@H]2O)C[C@@H]2O[C@](O)(C[C@@H](O)C[C@@H](O)CC[C@H](O)[C@@H](O)C[C@@H](O)CC(=O)O[C@H]1C)C[C@H](O)[C@H]2C(=O)O	10058	broth dilution	0.004 µg/mL
CCN1CCN(c2nc(Nc3ccc(C(=O)/C=C/c4ccc(OC)c(OC)c4)cc3)nc3ccccc23)CC1	MTCC 1323	agar / visual reading	3.12 µg/mL
Cc1cc(Cl)[nH]c2ccc3c(=O)c(C(=O)NN=Cc4cc([N+](=O)[O-])ccc4O)cnc3c12		broth dilution	1000 µg/mL
CCN1CCN(c2nc(NN=C3SCC(=O)N3c3ccccc3)nc3ccccc23)CC1	MTCC 1323	agar / visual reading	50 µg/mL
O=C(NN1C(=O)/C(=C/c2cc3ccccc3nc2Cl)N=C1c1ccccc1)c1cccc(Cl)c1	MTCC 1323	broth dilution	100 µg/mL
CCN1CCN(c2nc(Nc3ccc(C(=O)/C=C/c4ccccc4O)cc3)nc3ccccc23)CC1	MTCC 1323	agar / visual reading	50 µg/mL
COc1cccc(NC(=O)CSc2nnc(-c3ccc(N=Cc4cccs4)cc3)o2)c1	MTCC 1323	broth dilution	500 µg/mL
Cc1nn(-c2ccccc2)c2c1C(c1ccccc1Cl)c1c(nc(=O)[nH]c1N)O2	MTCC 1323		>1000 µg/mL
O=C(NN1C(=O)/C(=C/c2cc3ccccc3nc2Cl)N=C1c1ccccc1)c1ccc([N+](=O)[O-])cc1	MTCC 1323	broth dilution	200 µg/mL
Cc1ccc(-c2cc(-c3cc4cc(F)ccc4oc3=O)nc(NS(=O)(=O)c3ccccc3)c2C#N)cc1	MTCC 1323	turbidity	100 µg/mL
COc1cc(C=NNC(=O)c2cnc3c(ccc4[nH]c(Cl)cc(C)c43)c2=O)ccc1O		broth dilution	1000 µg/mL

A second listing of 4 rows from above:

smiles | strain or isolate | read by | result
O=C(CSc1nnc(-c2ccc(N=Cc3cccs3)cc2)o1)Nc1ccc(Cl)c(Cl)c1 | MTCC 1323 | broth dilution | 500 µg/mL
Cc1ccc(-c2cc(-c3cc4cc(F)ccc4oc3=O)nc(NS(=O)(=O)c3ccccc3)c2C#N)cc1 | MTCC 1323 | turbidity | 100 µg/mL
O=C(NN1C(=O)/C(=C/c2cc3ccccc3nc2Cl)N=C1c1ccccc1)c1cccc(O)c1 | MTCC 1323 | broth dilution | 500 µg/mL
Cc1nn(-c2ccccc2)c2c1C(c1ccccc1Cl)c1c(nc(=O)[nH]c1N)O2 | MTCC 1323 |  | >1000 µg/mL

Conditions beyond the fields shown may differ between rows.